Compound potency records, mixed from different reports. Data source: NIAID ChemDB in PubChem.

Shared fields: whole-cell or culture tests; agent: Aspergillus clavatus; read-out: MIC

An empty or dashed field is not shown. Lines come from different laboratories, so protocols vary.

SMILES	strain	method	result
N#Cc1c(-c2cccc(O)c2)cc(-c2cc3cc(F)ccc3oc2=O)nc1NS(=O)(=O)c1ccccc1	MTCC 1323	turbidity	100 µg/mL
Cc1ccc(NC(=S)Nc2nc(N3CCN(c4ccccc4)CC3)c3ccccc3n2)cc1	MTCC 1323	agar / visual reading	100 µg/mL
COc1ccc(CN2CCN(c3nc(NCCNc4ncnc5c(Br)cc(Br)cc45)nc(NC4CC4)n3)CC2)c(OC)c1OC	MTCC 1323	agar	12.5 µg/mL
Cc1nn(-c2ccccc2)c2c1C(c1ccc(Cl)cc1)c1c(nc(=O)[nH]c1N)O2	MTCC 1323		>1000 µg/mL
S=C(Nc1ccccc1)Nc1nc(N2CCN(c3ccccc3)CC2)c2ccccc2n1	MTCC 1323	agar / visual reading	400 µg/mL
Cc1cc(Cl)[nH]c2ccc3c(=O)c(C(=O)NN4C(=O)C(Cl)C4c4cccc([N+](=O)[O-])c4O)cnc3c12		broth dilution	>1000 µg/mL
CC1CC(C)CN(c2nc(Cl)nc(NC3CC3)n2)C1	MTCC 1323	agar	50 µg/mL
Cc1cc(Cl)[nH]c2ccc3c(=O)c(C(=O)NN=Cc4ccccc4)cnc3c12		broth dilution	>1000 µg/mL
CCN1CCN(c2nc(Nc3ccc(C(=O)/C=C/c4cc(C)c(O)c(C)c4)cc3)nc3ccccc23)CC1	MTCC 1323	agar / visual reading	200 µg/mL
O=C(NN1C(=O)/C(=C/c2cc3ccccc3nc2Cl)N=C1c1ccccc1)c1ccc(F)cc1	MTCC 1323	broth dilution	100 µg/mL
Cc1cc(Cl)[nH]c2ccc3c(=O)c(C(=O)NN4C(=O)C(Cl)C4c4ccc(Cl)cc4)cnc3c12		broth dilution	500 µg/mL
S=C(Nc1cccc(Cl)c1)Nc1nc(N2CCN(c3ccccc3)CC2)c2ccccc2n1	MTCC 1323	agar / visual reading	3.12 µg/mL
COc1ccc(CN2CCN(c3nc(Cl)nc(NC4CC4)n3)CC2)c(OC)c1OC	MTCC 1323	agar	25 µg/mL
CCN1CCN(c2nc(Nc3ccc(C(=O)/C=C/c4ccco4)cc3)nc3ccccc23)CC1	MTCC 1323	agar / visual reading	25 µg/mL
Clc1nc(NC2CC2)nc(N2CCN(c3ccccc3)CC2)n1	MTCC 1323	agar	50 µg/mL
Cc1cc(Cl)[nH]c2ccc3c(=O)c(C(=O)NN4C(=O)C(Cl)C4c4ccccc4O)cnc3c12		broth dilution	1000 µg/mL
N#Cc1c(-c2cccc([N+](=O)[O-])c2)cc(-c2cc3cc(F)ccc3oc2=O)nc1NS(=O)(=O)c1ccccc1	MTCC 1323	turbidity	>1000 µg/mL
COc1cc(C2C(Cl)C(=O)N2NC(=O)c2cnc3c(ccc4[nH]c(Cl)cc(C)c43)c2=O)ccc1O		broth dilution	500 µg/mL
CCN1CCN(c2nc(NCCNc3ncnc4c(Br)cc(Br)cc34)nc(NC3CC3)n2)CC1	MTCC 1323	agar	100 µg/mL
Cc1nn(-c2ccccc2)c2c1C(c1cccc(Cl)c1)c1c(nc(=O)[nH]c1N)O2	MTCC 1323		1000 µg/mL
Fc1ccc(N2CCN(c3nc(NCCNc4ncnc5c(Br)cc(Br)cc45)nc(NC4CC4)n3)CC2)cc1	MTCC 1323	agar	50 µg/mL
O=C(NN1C(=O)/C(=C/c2cc3ccccc3nc2Cl)N=C1c1ccccc1)c1ccccc1O	MTCC 1323	broth dilution	500 µg/mL
Cc1nn(-c2ccccc2)c2c1C(c1cccc(Br)c1)C(C#N)=C(N)O2	MTCC 1323		250 µg/mL
O=[N+]([O-])c1ccccc1NC(=S)Nc1nc(N2CCN(c3ccccc3)CC2)c2ccccc2n1	MTCC 1323	agar / visual reading	6.25 µg/mL
N#Cc1c(-c2ccc([N+](=O)[O-])cc2)cc(-c2cc3cc(F)ccc3oc2=O)nc1NS(=O)(=O)c1ccccc1	MTCC 1323	turbidity	100 µg/mL
COc1ccc(C2c3c(nc(=O)[nH]c3N)Oc3c2c(C)nn3-c2ccccc2)cc1	MTCC 1323		250 µg/mL
Cc1cc(Cl)[nH]c2ccc3c(=O)c(C(=O)NN=Cc4cccc([N+](=O)[O-])c4O)cnc3c12		broth dilution	500 µg/mL
CC(C)N1CCN(c2nc(NCCNc3ncnc4c(Br)cc(Br)cc34)nc(NC3CC3)n2)CC1	MTCC 1323	agar	100 µg/mL
CCN1CCN(c2nc(NN=C3SCC(=O)N3c3ccccc3Cl)nc3ccccc23)CC1	MTCC 1323	agar / visual reading	3.12 µg/mL
O=C(Cc1ccccc1)NN1C(=O)/C(=C/c2cc3ccccc3nc2Cl)N=C1c1ccccc1	MTCC 1323	broth dilution	500 µg/mL
Cc1cc(Cl)[nH]c2ccc3c(=O)c(C(=O)NN4C(=O)C(Cl)C4c4ccccc4)cnc3c12		broth dilution	>1000 µg/mL

A second listing of 3 rows from above:

SMILES,strain,method,result
Clc1nc(NC2CC2)nc(N2CCN(c3ccccc3)CC2)n1,MTCC 1323,agar,50 µg/mL
COc1cc(C2C(Cl)C(=O)N2NC(=O)c2cnc3c(ccc4[nH]c(Cl)cc(C)c43)c2=O)ccc1O,,broth dilution,500 µg/mL
N#Cc1c(-c2ccc([N+](=O)[O-])cc2)cc(-c2cc3cc(F)ccc3oc2=O)nc1NS(=O)(=O)c1ccccc1,MTCC 1323,turbidity,100 µg/mL